Test results from paper PMC6851853, “Characterization of P. falciparum dipeptidyl aminopeptidase 3 specificity identifies differences in amino acid preferences between peptide‐based substrates and covalent inhibitors” (The Febs Journal, 2019).

Amino acid sequences for entries named in this document (tags omitted). Residues count along the entry.
UniProt Q8I1Y2, 21-939 limits assumed: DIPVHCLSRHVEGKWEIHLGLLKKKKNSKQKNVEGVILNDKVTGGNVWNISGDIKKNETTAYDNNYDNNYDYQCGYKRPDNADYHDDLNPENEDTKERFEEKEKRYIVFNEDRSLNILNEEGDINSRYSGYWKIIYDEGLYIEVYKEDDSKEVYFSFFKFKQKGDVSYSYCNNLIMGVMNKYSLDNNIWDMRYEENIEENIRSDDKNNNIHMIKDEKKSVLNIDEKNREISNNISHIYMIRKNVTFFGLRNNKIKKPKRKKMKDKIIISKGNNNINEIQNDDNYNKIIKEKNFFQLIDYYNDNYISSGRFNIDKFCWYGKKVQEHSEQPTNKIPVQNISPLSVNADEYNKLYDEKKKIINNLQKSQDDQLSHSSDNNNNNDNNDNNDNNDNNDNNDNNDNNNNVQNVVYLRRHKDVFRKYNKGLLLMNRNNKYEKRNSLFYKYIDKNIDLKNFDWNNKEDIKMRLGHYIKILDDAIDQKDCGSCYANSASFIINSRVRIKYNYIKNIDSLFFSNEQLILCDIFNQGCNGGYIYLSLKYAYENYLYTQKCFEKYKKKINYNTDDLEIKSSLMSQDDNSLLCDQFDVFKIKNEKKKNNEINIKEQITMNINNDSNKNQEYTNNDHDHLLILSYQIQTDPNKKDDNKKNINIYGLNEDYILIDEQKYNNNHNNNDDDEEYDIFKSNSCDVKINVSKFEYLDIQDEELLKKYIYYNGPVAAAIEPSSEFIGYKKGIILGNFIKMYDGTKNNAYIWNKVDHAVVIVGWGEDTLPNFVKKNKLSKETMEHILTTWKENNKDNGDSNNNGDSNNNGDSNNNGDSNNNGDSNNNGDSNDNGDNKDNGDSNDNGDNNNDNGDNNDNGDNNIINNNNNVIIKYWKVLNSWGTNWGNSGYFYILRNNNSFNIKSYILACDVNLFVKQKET

Target: DPAP3 (Plasmodium falciparum, UniProt Q8I1Y2)
Test: continuous fluorogenic assay, V0 fitted to reversible binding model
Details: read-out: DPAP3 / K i, no time-dependent inactivation, 2.2 µM Met-nLeu(o-Bzl)-ACC, pH 6, 5 mM DTT, RT
From the text: continuous fluorogenic assay, V0 fitted to reversible binding model on DPAP3 (recombinant)

NCc1ccc(C(=O)N[C@H](/C=C/S(=O)(=O)CCCCCCCCCCC(=O)N[C@@H](Cc2ccc(O)cc2)C(N)=O)CCc2ccccc2)cc1 gave a Ki of 3.2 µM.
